{"source": "PubChem BioAssay AID624099 (ICCB-Longwood, 2012)", "purpose": "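Host factors E2 relies on to silence an HPV18 LCR reporter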 (primary screen)", "system": "human C33A cervical carcinoma cells (HPV-negative) stably expressing BPV1 E2 and an HPV18 LCR luciferase reporter", "reagent": "siRNA pool against human genes, 40 nM", "time to read-out": "72 h", "detection": "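HPV18 LCR reporter light per well, converted to plate-wise z-scores that exclude control wells, and averaged over triplicate plates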", "scale": "mean z-score and z-score: higher = stronger reporter signal, weaker E2 silencing", "active means": "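Mean z ≥ 2 together with z ≥ 2 in two or more of the three replicates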", "note": "Here is an unselected part of about 21,000 deposited reagents. 497 of all reagents (2.4%) were called active. 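Higher z means weaker E2 silencing; only reporter increases were scored, and knock-downs that hurt cell survival may mask genuine repressor factors.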 Unmarked entries are inactive."}
{"gene symbol": "MBLAC2", "mean z-score": -0.75, "z-score, replicate A": -0.75, "z-score, replicate B": -0.95, "z-score, replicate C": -0.55}
{"gene symbol": "ATP5PF", "mean z-score": 0.81, "z-score, replicate A": 0.71, "z-score, replicate B": 0.65, "z-score, replicate C": 1.07}
{"gene symbol": "EPN3", "mean z-score": -0.36, "z-score, replicate A": -0.32, "z-score, replicate B": -0.46, "z-score, replicate C": -0.29}
{"gene symbol": "LOC390299 (retired record)", "mean z-score": 1.24, "z-score, replicate A": 1.22, "z-score, replicate B": 1.24, "z-score, replicate C": 1.28}
{"gene symbol": "P2RY13", "mean z-score": -0.95, "z-score, replicate A": -1.07, "z-score, replicate B": -0.8, "z-score, replicate C": -0.98}
{"gene symbol": "SHROOM3", "mean z-score": 0.4, "z-score, replicate A": 0.1, "z-score, replicate B": 0.62, "z-score, replicate C": 0.49}
{"gene symbol": "BPIFB1", "mean z-score": -3.12, "z-score, replicate A": -3.12, "z-score, replicate B": -3.4, "z-score, replicate C": -2.82}
{"gene symbol": "SDHAF3", "mean z-score": 1.13, "z-score, replicate A": 0.97, "z-score, replicate B": 1.31, "z-score, replicate C": 1.11}
{"gene symbol": "KCNJ14", "mean z-score": 0.76, "z-score, replicate A": 0.88, "z-score, replicate B": 0.73, "z-score, replicate C": 0.69}
{"gene symbol": "BLNK", "mean z-score": 1.61, "z-score, replicate A": 1.86, "z-score, replicate B": 1.5, "z-score, replicate C": 1.48}
{"gene symbol": "LOC399789 (retired record)", "mean z-score": -0.16, "z-score, replicate A": 0.38, "z-score, replicate B": -0.54, "z-score, replicate C": -0.32}
{"gene symbol": "SPATA19", "mean z-score": 0.32, "z-score, replicate A": 0.09, "z-score, replicate B": 0.37, "z-score, replicate C": 0.5}
{"gene symbol": "KCNJ10", "mean z-score": -1.26, "z-score, replicate A": -1.35, "z-score, replicate B": -1.44, "z-score, replicate C": -0.99}
{"gene symbol": "RSBN1", "mean z-score": -0.07, "z-score, replicate A": -0.4, "z-score, replicate B": -0.17, "z-score, replicate C": 0.35}
{"gene symbol": "SMN2", "mean z-score": -1.41, "z-score, replicate A": -1.58, "z-score, replicate B": -1.3, "z-score, replicate C": -1.36}
{"gene symbol": "ABHD17A", "mean z-score": "2.28 (active)", "z-score, replicate A": 2.01, "z-score, replicate B": 2.58, "z-score, replicate C": 2.24}
{"gene symbol": "LOC341098 (retired record)", "mean z-score": 0.25, "z-score, replicate A": 0.04, "z-score, replicate B": 0.55, "z-score, replicate C": 0.15}
{"gene symbol": "RPL13", "mean z-score": -1.43, "z-score, replicate A": -1.38, "z-score, replicate B": -1.42, "z-score, replicate C": -1.5}
{"gene symbol": "GHR", "mean z-score": 0.18, "z-score, replicate A": 0.24, "z-score, replicate B": 0.05, "z-score, replicate C": 0.26}
{"gene symbol": "LOC387805 (retired record)", "mean z-score": -1.29, "z-score, replicate A": -1.23, "z-score, replicate B": -1.51, "z-score, replicate C": -1.12}
{"gene symbol": "MBOAT7", "mean z-score": 0.63, "z-score, replicate A": -0.08, "z-score, replicate B": 0.85, "z-score, replicate C": 1.13}

No new results follow: an excerpt of the list.
{"gene symbol": "SPATA19", "mean z-score": 0.32, "z-score, replicate A": 0.09, "z-score, replicate B": 0.37, "z-score, replicate C": 0.5}
{"gene symbol": "KCNJ10", "mean z-score": -1.26, "z-score, replicate A": -1.35, "z-score, replicate B": -1.44, "z-score, replicate C": -0.99}
{"gene symbol": "RSBN1", "mean z-score": -0.07, "z-score, replicate A": -0.4, "z-score, replicate B": -0.17, "z-score, replicate C": 0.35}
